Results of unrelated studies side by side (data: NIAID ChemDB).

Shared fields: whole-cell or culture tests; agent: Herpes simplex virus 1; read-out: EC50

ECn is the concentration giving n% inhibition of infection, replication or growth. Conditions beyond the fields shown may differ between rows. Blank or dashed fields: not listed here. Two numbers with a dash give a range or band.

| compound | strain | cells | read by | result |
|---|---|---|---|---|
| CCc1cn([C@@H]2O[C@H](CO)[C@@H](O)[C@@H]2O)c(=S)[nH]c1=O | A4-3 (TK-) | RPMI8226 | cytopathic effect | >264.9 µM |
| CCOC(=O)c1ccc(OCCOc2ccc(-c3snc(SC)c3C#N)cc2)cc1 | F | HEP-2/L-929/VERO | plaque count | >2 µM |
| CCc1cc([C@H]2C[C@H](O)[C@@H](CO)O2)c(F)cc1F | F | E6SM | cytopathic effect | >400 µg/mL |
| CSCc1cn([C@H]2C[C@H](O)[C@@H](CO)O2)c(=O)[nH]c1=O | McIntyre | PRK | cytopathic effect | 4 µg/mL |
| Nc1nc2c(ncn2COC(CO)CO)c(=O)[nH]1 | - | MRC-5 | - | 0.032 µM |
| CC(C)c1cn([C@@H]2O[C@H](COP(=O)(O)O)[C@@H](O)[C@H]2O)c(=O)nc1N | F | - | - | >400 µg/mL |
| O=c1[nH]c(=O)n([C@H]2C[C@H](O)[C@@H](CO)O2)cc1I | F | PRK | cytopathic effect | 0.15 µg/mL |
| c1ccc2nc3c(nc2c1)c1ccccc1n3Cc1nccs1 | C42 | RK-13 | ELISA | >30 µM |
| O=c1[nH]c(=S)n([C@H]2C[C@H](O)[C@@H](CO)O2)cc1Cl | KOS | RPMI8226 | plaque count | 31 µM |
| Nc1nc2c(ncn2COCCO)c(=O)[nH]1 | HL-3 | HFF | plaque count | 0.3 µg/mL |
| Nc1nc2c(ncn2[C@@H]2C[C@H](CO)[C@H]2CO)c(=O)[nH]1 | Schooler | WI-38 | plaque count | 0.08–0.2 µM |
| Nc1nc2c(ncn2COC(CO)CO)c(=O)[nH]1 | ICI | 3T3 | plaque count | 0.9 µM |
| CCCCc1cn([C@@H]2OC3COP(=O)(O)OC3[C@H]2O)c(=O)nc1N | F | - | - | >400 µg/mL |
| COc1cc(F)c([C@H]2C[C@H](O)[C@@H](CO)O2)cc1[N+](=O)[O-] | KOS | E6SM | cytopathic effect | >400 µg/mL |
| Cc1cn([C@@H]2O[C@H](CO)[C@@H](O)[C@@H]2O)c(=S)nc1N | A4-3 (TK-) | RPMI8226 | cytopathic effect | >275.1 µM |
| CCCCCc1cn([C@@H]2O[C@H](COP(=O)(O)O)[C@@H](O)[C@H]2O)c(=O)nc1N | McIntyre | - | - | >400 µg/mL |
| Cc1cc([C@@H]2C[C@H](O)[C@@H](CO)O2)c(F)cc1F | KOS | E6SM | cytopathic effect | >400 µg/mL |
| Nc1nc(=S)n([C@@H]2O[C@H](CO)[C@@H](O)[C@@H]2O)cc1I | TK- | MRC-5 | plaque count | 6.23 µM |
| O=c1[nH]c(=S)n([C@@H]2O[C@H](CO)[C@@H](O)[C@@H]2O)cc1CCO | A4-3 (TK-) | RPMI8226 | cytopathic effect | >244.8 µM |
| OCC(=CCn1cnc2c(Cl)ncnc21)CO | - | CCL18 | cytopathic effect | 79.5 µg/mL |
| CCCCOc1ccc(-c2cc3c(-c4ccnc(NC5CCCC5)n4)ccc(NC4CCCC4)n3n2)cc1 | SC16 | VERO 76 | antigen / hybridisation | 3.13 µM |
| C=C1[C@H](CO)[C@@H](O)C[C@@H]1n1cnc2c(=O)[nH]c(N)nc21 | - | WI-38 | plaque count | 2.8 µM |
| Nc1nc2c(ncn2COCCO)c(=O)[nH]1 | V74140 (acyclovir-susceptible) | HFF | cytopathic effect | 0.5 µg/mL |
| O=c1[nH]c(=O)n([C@H]2C[C@H](O)[C@@H](CO)O2)cc1/C=C/Br | F | Primary rabbit kidney cells | cytopathic effect | 0.01 µg/mL |
| Fc1cccc(-c2cc3c(-c4ccnc(NC5CCCC5)n4)ccc(NC4CCCC4)n3n2)c1 | SC16 | VERO 76 | antigen / hybridisation | 0.23 µM |
| O=C(O)P(=O)(O)O | Wilson | MEF | plaque count | 8 µg/mL |
| Nc1cc([C@H]2C[C@H](O)[C@@H](CO)O2)c(F)cc1F | KOS | E6SM | cytopathic effect | >400 µg/mL |
| Nc1ccn([C@@H]2O[C@H](CO)[C@@H](O)[C@H]2O)c(=S)n1 | KOS | RPMI8226 | plaque count | >386 µM |
| O=c1[nH]cnc2c1ncn2CC=C(CO)CO | - | CCL18 | cytopathic effect | >100 µg/mL |
| Cc1cc2nc3c4ccccc4n(CCN(C)C)c3nc2cc1C | C42 | RK-13 | ELISA | 4.17 µM |
| O=Cc1cn([C@H]2C[C@H](O)[C@@H](CO)O2)c(=O)[nH]c1=O | VEX149 | PRK | cytopathic effect | 0.4 µg/mL |
| Nc1nc(=S)n([C@H]2C[C@H](O)[C@@H](CO)O2)cc1Br | TK- | MRC-5 | plaque count | >312 µM |
| OC[C@H]1O[C@@H](c2cc(C#CI)c(F)cc2F)C[C@@H]1O | VMW1837 (TK-) | E6SM | cytopathic effect | >400 µg/mL |
| Nc1nc(=S)n([C@@H]2O[C@H](CO)[C@@H](O)[C@@H]2O)cc1Cl | KOS | RPMI8226 | plaque count | >341 µM |
| OC[C@H]1O[C@H](c2cc(F)c(F)cc2F)C[C@@H]1O | F | E6SM | cytopathic effect | >400 µg/mL |
| CSc1nsc(-c2ccc(OCCCOc3ccc(C#N)cc3)cc2)c1C#N | F | HEP-2/L-929/VERO | plaque count | >2 µM |
| c1cc(-c2ccc(NC3CCCC3)n3nc(-c4ccc(OCC5CC5)cc4)cc23)nc(NC2CCCC2)n1 | SC16 | VERO 76 | antigen / hybridisation | 0.17 µM |
| Cc1cn([C@H]2C[C@H](O)[C@@H](CO)O2)c(=S)[nH]c1=O | KOS | RPMI8226 | plaque count | 2.52 µM |
| CCc1cn([C@H]2C[C@H](O)[C@@H](CO)O2)c(=O)[nH]c1=O | LYONS | Primary rabbit kidney cells | cytopathic effect | 2 µg/mL |
| O=c1[nH]c(=O)n([C@H]2C[C@H](O)[C@@H](CO)O2)cc1F | VMW1837 (TK-) | PRK | cytopathic effect | 0.2 µg/mL |
| CC(O)c1cn([C@@H]2O[C@H](CO)[C@@H](O)[C@@H]2O)c(=S)[nH]c1=O | A4-3 (TK-) | RPMI8226 | cytopathic effect | >263.5 µM |
| CCCc1cn([C@H]2C[C@H](O)[C@@H](COP(=O)(O)O)O2)c(=O)[nH]c1=O | B2006 (TK-) | HSF | cytopathic effect | >797 µg/mL |
| Nc1nc2c(ncn2C/C=C(/CO)c2ccccc2)c(=O)[nH]1 | - | CCL18 | cytopathic effect | >100 µg/mL |
| CCc1cn([C@H]2C[C@H](O)[C@@H](COP(=O)(O)O)O2)c(=O)[nH]c1=O | KOS | HSF | cytopathic effect | 4.1 µg/mL |
| Nc1nc2c(ncn2CCC(CO)CO)c(=O)[nH]1 | - | MRC-5 | - | 0.25 µM |
| Nc1ccc(-c2cc3c(-c4ccnc(NC5CCC5)n4)ccc(NC4CCC4)n3n2)cc1 | SC16 | VERO 76 | antigen / hybridisation | 1.07 µM |
| C=Cc1cn([C@@H]2O[C@H](CO)[C@@H](O)[C@@H]2O)c(=S)[nH]c1=O | A4-3 (TK-) | RPMI8226 | cytopathic effect | >266.3 µM |
| O=c1[nH]c(=O)n([C@H]2C[C@H](O)[C@@H](CO)O2)cc1/C=C/Br | 511 | 3T6 | plaque count | 0.05 µg/mL |
| C=Cc1cn([C@H]2C[C@H](O)[C@@H](CO)O2)c(=S)[nH]c1=O | A4-3 (TK-) | RPMI8226 | cytopathic effect | >290.3 µM |
| O=[N+]([O-])c1cc([C@H]2C[C@H](O)[C@@H](CO)O2)c(F)cc1F | VMW 1837 | E6SM | cytopathic effect | >400 µg/mL |
| Nc1ncnc2c1c(Br)cn2COCCO | - | HEF | cytopathic effect | 3 µM |
| CCOC(=O)c1ccc(OCCCOc2ccc(-c3snc(SC)c3C#N)cc2)cc1 | F | HEP-2/L-929/VERO | plaque count | >2 µM |
| Nc1nc(=S)n([C@@H]2O[C@H](CO)[C@@H](O)[C@@H]2O)cc1Br | KOS | MRC-5 | plaque count | 27.2 µM |
| Nc1cccc(-c2cc3c(-c4ccnc(NC5CCCC5)n4)ccc(NC4CCCC4)n3n2)c1 | SC16 | VERO 76 | antigen / hybridisation | 0.64 µM |
| Cc1cc([C@H]2C[C@H](O)[C@@H](CO)O2)c(F)cc1F | VMW 1837 | E6SM | cytopathic effect | >400 µg/mL |
| O=[N+]([O-])c1ccc(-c2nc3c(Cl)c4ncccc4cc3[nH]2)cc1 | KOS | VERO 76 | plaque count | 44 µM |
| CCc1cn([C@@H]2O[C@H](CO)[C@@H](O)[C@@H]2O)c(=S)nc1N | A4-3 (TK-) | RPMI8226 | cytopathic effect | >264.9 µM |
| Nc1ncnc2c1ncn2[C@@H]1O[C@H](CO)[C@@H](O)[C@H]1OP(=O)(O)OC[C@H]1O[C@@H](n2cnc3c(N)ncnc32)[C@H](OP(=O)(O)OC[C@H]2O[C@@H](n3cc(F)c(=O)[nH]c3=O)C[C@@H]2O)[C@@H]1O | VMW1837 (TK-) | PRK | cytopathic effect | 2 µg/mL |
| [N-]=[N+]=NCc1cn([C@H]2C[C@H](O)[C@@H](CO)O2)c(=O)[nH]c1=O | VDX500 | PRK | cytopathic effect | 2 µg/mL |
| Nc1ncnc2c1ncn2C[C@@H](CO)OCP(=O)(O)O | B2006 (TK-) | ESM | cytopathic effect | 2 µg/mL |
| CN(C)c1cccc(-c2cc3c(-c4ccnc(NC5CCC5)n4)ccc(NC4CCC4)n3n2)c1 | SC16 | VERO 76 | antigen / hybridisation | 1.7 µM |
| CSc1nsc(-c2ccc(OCCOc3ccc([N+](=O)[O-])cc3)cc2)c1C#N | F | HEP-2/L-929/VERO | plaque count | >1 µM |
| OC[C@H]1O[C@@H](c2cc(C#CBr)c(F)cc2F)C[C@@H]1O | KOS | E6SM | cytopathic effect | 9.6 µg/mL |
| Cc1cn([C@H]2C[C@H](O)[C@@H](CO)O2)c(=S)nc1N | KOS (TK+) | RPMI8226 | cytopathic effect | 36.4 µM |
| Cc1cn([C@@H]2O[C@H](COP(=O)(O)O)[C@@H](O)[C@@H]2O)c(=O)[nH]c1=O | VR-3 | HELF | cytopathic effect | 1 µg/mL |
| O=c1c2ncn(COCCO)c2nc2[nH]c(-c3ccccc3)c(-c3ccc(C(c4ccccc4)c4ccccc4)cc3)n12 | McIntyre | - | cytopathic effect | >16 µg/mL |
| Nc1nc2c(ncn2CC=C(CO)CO)c(=O)[nH]1 | - | CCL18 | cytopathic effect | >100 µg/mL |
| C=CCOc1ccc(-c2cc3c(-c4ccnc(NC5CCCC5)n4)ccc(NC4CCCC4)n3n2)cc1 | SC16 | VERO 76 | antigen / hybridisation | 0.2 µM |
| Cc1cn([C@@H]2O[C@H](COP(=O)(O)O)[C@@H](O)[C@H]2O)c(=O)nc1N | F | - | - | >400 µg/mL |
| Fc1ccc(-c2cc3c(-c4ccnc(NC5CCCC5)n4)ccc(NC4CCCC4)n3n2)cc1 | SC16 | VERO 76 | antigen / hybridisation | 0.26 µM |
| Nc1nc(=S)n([C@@H]2O[C@H](CO)[C@@H](O)[C@@H]2O)cc1F | TK- | MRC-5 | plaque count | >361 µM |
| Clc1ccc(-c2cc3c(-c4ccnc(NC5CCCC5)n4)ccc(NC4CCCC4)n3n2)cc1 | SC16 | VERO 76 | antigen / hybridisation | 0.86 µM |
| O=c1[nH]c(=O)n([C@H]2C[C@H](O)[C@@H](CO)O2)cc1I | LYONS | Primary rabbit kidney cells | cytopathic effect | 1 µg/mL |
| OC[C@H]1O[C@H](c2cc(I)c(F)cc2F)C[C@@H]1O | VMW 1837 | E6SM | cytopathic effect | >400 µg/mL |
| Nc1ccn(C[C@@H](CO)OCP(=O)(O)O)c(=O)n1 | BW-S (TK+) | MRC-5 | plaque count | 8.5 µM |

Repeating the first 4 entries:

compound,strain,cells,read by,result
CCc1cn([C@@H]2O[C@H](CO)[C@@H](O)[C@@H]2O)c(=S)[nH]c1=O,A4-3 (TK-),RPMI8226,cytopathic effect,>264.9 µM
CCOC(=O)c1ccc(OCCOc2ccc(-c3snc(SC)c3C#N)cc2)cc1,F,HEP-2/L-929/VERO,plaque count,>2 µM
CCc1cc([C@H]2C[C@H](O)[C@@H](CO)O2)c(F)cc1F,F,E6SM,cytopathic effect,>400 µg/mL
CSCc1cn([C@H]2C[C@H](O)[C@@H](CO)O2)c(=O)[nH]c1=O,McIntyre,PRK,cytopathic effect,4 µg/mL